The results in this text go back to patent US20260083728A1, “COMPOUNDS FOR TREATING INFECTIONS WITH PARASITIC PROTOZOA” (OHIO STATE INNOVATIION FOUNDATION, priority 2022, published 2026).

In this assay the test system is L. donovani LV82 promastigotes. Description: Promastigote assay (proliferation). The note with it: read-out: EC50 vs LV82, n ≥ 3 independent experiments. In kind it is cell-based, Leishmania donovani.

For the compound `O=C(Nc1ccc(OCc2ccccc2)cc1)N1CCN(CCc2ccncc2)CC1`, the EC50 (as a rule, the concentration that produces a half-maximal response) is greater than 100 µM.
